Test [1] relates to cutaneous pectoris muscle of small grass frogs (Rana pipiens). To be noted: frog nerve-muscle preparation.
The test system is the same in test [2]. Put plainly: isolated neuromuscular preparation, physiological mode of action. To be noted: frog nerve-muscle preparation; for inhibition of nerve or muscle action potential propagation: 15°-20° C., at the toxin concentrations used; for site of action: various conditions of stimulation.

Where two headings read alike, the source gives them in different places.

Regarding `C[C@@H]1NC(=O)[C@@H]2CCCN2C(=O)[C@H](CC(N)=O)NC(=O)[C@@H]2CSSC[C@@H](C(=O)NCC(=O)N[C@@H](CCCCN)C(N)=O)NC(=O)[C@H](CO)NC(=O)[C@H](Cc3ccc(O)cc3)NC(=O)[C@H](Cc3c[nH]cn3)NC(=O)[C@H](CCCNC(=N)N)NC(=O)CNC(=O)[C@H](CSSC[C@H](NC(=O)[C@@H](N)CCC(=O)O)C(=O)N2)NC1=O`, the “inhibition of nerve or muscle action potential propagation” value (shortened to “inhibition”) in test [1] (15°-20° C., at the toxin concentrations used) was “no detectible inhibition”. Besides, in test [1] (various conditions of stimulation), the site of action result was “act at the muscle end plate region”.
For the compound `C[C@@H]1NC(=O)[C@@H]2CCCN2C(=O)[C@H](CC(N)=O)NC(=O)[C@@H]2CSSC[C@@H](C(N)=O)NC(=O)[C@H](CO)NC(=O)[C@H](Cc3ccc(O)cc3)NC(=O)[C@H](Cc3c[nH]cn3)NC(=O)[C@H](CCCNC(=N)N)NC(=O)CNC(=O)[C@H](CSSC[C@H](NC(=O)[C@@H](N)CCC(=O)O)C(=O)N2)NC1=O`, in test [2], the “inhibition” value is “no detectible inhibition” and the site of action entry is given as “act at the muscle end plate region”.
Regarding `C[C@@H]1NC(=O)[C@@H]2CCCN2C(=O)[C@H](Cc2c[nH]cn2)NC(=O)[C@@H]2CSSC[C@@H](C(N)=O)NC(=O)[C@H](CO)NC(=O)[C@H](Cc3ccccc3)NC(=O)[C@H](Cc3c[nH]cn3)NC(=O)[C@H](CCCCN)NC(=O)CNC(=O)[C@H](CSSC[C@H](NC(=O)[C@@H](N)CCC(=O)O)C(=O)N2)NC1=O`, in test [2], the “inhibition” value is on record as “no detectible inhibition” and the site of action entry is “act at the muscle end plate region”.

For the origin of these results see US4447356A, “Conotoxins” (dated 1984).
